Experimental data from paper PMC11740726 (PNAS Nexus, 2025).

Tested on: SARS-CoV-2^WK-521
Assay: In vitro selection of resistant variants by propagating SARS-CoV-2^WK-521 in VeroE6^TMPRSS2 cells with increasing drug concentrations
Conditions: increasing concentrations (TKB272 up to 20 µM)

## CC(C)(C)[C@H](NC(=O)C(F)(F)F)C(=O)N1C[C@H]2[C@@H]([C@H]1C(=O)N[C@H](C#N)C[C@@H]1CCNC1=O)C2(C)C [Nirmatrelvir, reference compound]
  passage at which amino acid substitution in the M^pro-encoding gene was first seen under drug selection: 9 passage
